US9901592B2 (priority 2008, dated 2018)

test system: 20 strains (7 S. aureus, 6 β-haemolytic streptococci and 7 S. pneumoniae); experiment: drug interaction (synergy) studies by the checkerboard method; assay type: cell-based; conditions: in combination with CEM-101

In order of rising “interaction category: Additive (occurrences)” value:
1. C[C@H]1COc2c(N3CCN(C)CC3)c(F)cc3c(=O)c(C(=O)O)cn1c23 [Levofloxacin, levofloxacin]  3
2. trimethoprim/sulfamethoxazole [TMP/SMX]  4
3. gentamicin  4
4. CO/N=C(\C(=O)N[C@@H]1C(=O)N2C(C(=O)O)=C(CSc3nc(=O)c(=O)[nH]n3C)CS[C@H]12)c1csc(N)n1 [CRO, ceftriaxone]  5
5. CN[C@H](CC(C)C)C(=O)N[C@H]1C(=O)N[C@@H](CC(N)=O)C(=O)N[C@H]2C(=O)N[C@H]3C(=O)N[C@H](C(=O)N[C@H](C(=O)O)c4cc(O)cc(O)c4-c4cc3ccc4O)[C@H](O)c3ccc(c(Cl)c3)Oc3cc2cc(c3O[C@@H]2O[C@H](CO)[C@@H](O)[C@H](O)[C@H]2O[C@H]2C[C@](C)(N)[C@H](O)[C@H](C)O2)Oc2ccc(cc2Cl)[C@H]1O [VAN, vancomycin]  6

In order of falling “interaction category: Antagonism (occurrences)” value:
1. trimethoprim/sulfamethoxazole [TMP/SMX]  0
2. CN[C@H](CC(C)C)C(=O)N[C@H]1C(=O)N[C@@H](CC(N)=O)C(=O)N[C@H]2C(=O)N[C@H]3C(=O)N[C@H](C(=O)N[C@H](C(=O)O)c4cc(O)cc(O)c4-c4cc3ccc4O)[C@H](O)c3ccc(c(Cl)c3)Oc3cc2cc(c3O[C@@H]2O[C@H](CO)[C@@H](O)[C@H](O)[C@H]2O[C@H]2C[C@](C)(N)[C@H](O)[C@H](C)O2)Oc2ccc(cc2Cl)[C@H]1O [VAN, vancomycin]  0
3. gentamicin  0
4. C[C@H]1COc2c(N3CCN(C)CC3)c(F)cc3c(=O)c(C(=O)O)cn1c23 [Levofloxacin, levofloxacin]  0
5. CO/N=C(\C(=O)N[C@@H]1C(=O)N2C(C(=O)O)=C(CSc3nc(=O)c(=O)[nH]n3C)CS[C@H]12)c1csc(N)n1 [CRO, ceftriaxone]  0

In order of falling “interaction category: Indeterminate (occurrences)” value:
1. CO/N=C(\C(=O)N[C@@H]1C(=O)N2C(C(=O)O)=C(CSc3nc(=O)c(=O)[nH]n3C)CS[C@H]12)c1csc(N)n1 [CRO, ceftriaxone]  1
2. trimethoprim/sulfamethoxazole [TMP/SMX]  0
3. CN[C@H](CC(C)C)C(=O)N[C@H]1C(=O)N[C@@H](CC(N)=O)C(=O)N[C@H]2C(=O)N[C@H]3C(=O)N[C@H](C(=O)N[C@H](C(=O)O)c4cc(O)cc(O)c4-c4cc3ccc4O)[C@H](O)c3ccc(c(Cl)c3)Oc3cc2cc(c3O[C@@H]2O[C@H](CO)[C@@H](O)[C@H](O)[C@H]2O[C@H]2C[C@](C)(N)[C@H](O)[C@H](C)O2)Oc2ccc(cc2Cl)[C@H]1O [VAN, vancomycin]  0
4. gentamicin  0
5. C[C@H]1COc2c(N3CCN(C)CC3)c(F)cc3c(=O)c(C(=O)O)cn1c23 [Levofloxacin, levofloxacin]  0

In order of rising “interaction category: Indifferent (occurrences)” value:
1. gentamicin  12
2. CO/N=C(\C(=O)N[C@@H]1C(=O)N2C(C(=O)O)=C(CSc3nc(=O)c(=O)[nH]n3C)CS[C@H]12)c1csc(N)n1 [CRO, ceftriaxone]  12
3. CN[C@H](CC(C)C)C(=O)N[C@H]1C(=O)N[C@@H](CC(N)=O)C(=O)N[C@H]2C(=O)N[C@H]3C(=O)N[C@H](C(=O)N[C@H](C(=O)O)c4cc(O)cc(O)c4-c4cc3ccc4O)[C@H](O)c3ccc(c(Cl)c3)Oc3cc2cc(c3O[C@@H]2O[C@H](CO)[C@@H](O)[C@H](O)[C@H]2O[C@H]2C[C@](C)(N)[C@H](O)[C@H](C)O2)Oc2ccc(cc2Cl)[C@H]1O [VAN, vancomycin]  13
4. trimethoprim/sulfamethoxazole [TMP/SMX]  14
5. C[C@H]1COc2c(N3CCN(C)CC3)c(F)cc3c(=O)c(C(=O)O)cn1c23 [Levofloxacin, levofloxacin]  17

In order of rising “interaction category: Synergy Complete (occurrences)” value:
1. trimethoprim/sulfamethoxazole [TMP/SMX]  0
2. CN[C@H](CC(C)C)C(=O)N[C@H]1C(=O)N[C@@H](CC(N)=O)C(=O)N[C@H]2C(=O)N[C@H]3C(=O)N[C@H](C(=O)N[C@H](C(=O)O)c4cc(O)cc(O)c4-c4cc3ccc4O)[C@H](O)c3ccc(c(Cl)c3)Oc3cc2cc(c3O[C@@H]2O[C@H](CO)[C@@H](O)[C@H](O)[C@H]2O[C@H]2C[C@](C)(N)[C@H](O)[C@H](C)O2)Oc2ccc(cc2Cl)[C@H]1O [VAN, vancomycin]  0
3. C[C@H]1COc2c(N3CCN(C)CC3)c(F)cc3c(=O)c(C(=O)O)cn1c23 [Levofloxacin, levofloxacin]  0
4. CO/N=C(\C(=O)N[C@@H]1C(=O)N2C(C(=O)O)=C(CSc3nc(=O)c(=O)[nH]n3C)CS[C@H]12)c1csc(N)n1 [CRO, ceftriaxone]  0
5. gentamicin  2

In order of rising “interaction category: Synergy Partial (occurrences)” value:
1. C[C@H]1COc2c(N3CCN(C)CC3)c(F)cc3c(=O)c(C(=O)O)cn1c23 [Levofloxacin, levofloxacin]  0
2. CN[C@H](CC(C)C)C(=O)N[C@H]1C(=O)N[C@@H](CC(N)=O)C(=O)N[C@H]2C(=O)N[C@H]3C(=O)N[C@H](C(=O)N[C@H](C(=O)O)c4cc(O)cc(O)c4-c4cc3ccc4O)[C@H](O)c3ccc(c(Cl)c3)Oc3cc2cc(c3O[C@@H]2O[C@H](CO)[C@@H](O)[C@H](O)[C@H]2O[C@H]2C[C@](C)(N)[C@H](O)[C@H](C)O2)Oc2ccc(cc2Cl)[C@H]1O [VAN, vancomycin]  1
3. trimethoprim/sulfamethoxazole [TMP/SMX]  2
4. gentamicin  2
5. CO/N=C(\C(=O)N[C@@H]1C(=O)N2C(C(=O)O)=C(CSc3nc(=O)c(=O)[nH]n3C)CS[C@H]12)c1csc(N)n1 [CRO, ceftriaxone]  2
